Compound potency records, mixed from different reports. Data source: NIAID ChemDB in PubChem.

Common to all: tests in culture; species: Hepatitis B virus; cell line: Primary human hepatocytes; measure: EC50

a–b is a range or a potency band. ECn: concentration that inhibits the pathogen or its effect by n%. Rows are shuffled and stem from different studies.

compound | method | value
CS(=O)(=O)C1(c2ncc(C(=O)NCCC3(c4ncc(-c5ccc(Cl)cc5)s4)CCC3)o2)CC1 | antigen / luminescence | 0.07 µM
CNS(=O)(=O)c1ccc(C(=O)NC2CC3(C2)CC(c2nc4cc(Cl)ccc4o2)C3)o1 | luminescence | 1.036 µM
COCCCOc1cc2c(cc1F)-c1c(cc(C(=O)O)c(=O)n1C1CC1)C(C(C)(C)C)S2(=O)=O | antigen / visual reading / absorbance | >0.5 µM
CS(=O)(=O)N1CC(C(=O)NC2CC3(C2)CC(c2nc4cc(Cl)ccc4o2)C3)C1 | luminescence | 4.3 µM
CS(=O)(=O)C1(c2nsc(C(=O)NCCC3(c4ccnc(-c5ccc(Cl)cc5)n4)CCC3)n2)CC1 | antigen / luminescence | 0.07 µM
C[C@H](c1ccc(C(=O)NC23CC(c4nc5cc(Cl)ccc5s4)(C2)C3)o1)S(C)(=O)=O | ELISA / antigen | 0.36 µM
CCOCCOc1cc2c(cc1Cl)-c1c(cc(C(=O)O)c(=O)n1C1CC1)C(C)S2(=O)=O | antigen / visual reading / absorbance | 0.1–0.5 µM
NC(=O)c1cc(C(=O)NC2CC3(C2)CC(c2nc4cc(Cl)ccc4s2)C3)ccn1 | luminescence | 4.06 µM
O=C(NC1CC2(C1)CC(c1nc3cc(Cl)ccc3o1)C2)C1CCS(=O)(=O)N1 | luminescence | 3.9 µM
COCCCOc1cc2c(cc1NCCC(=O)O)-c1c(cc(C(=O)O)c(=O)n1C1CC1)C(C)S2(=O)=O | antigen / visual reading / absorbance | >0.5 µM
CS(=O)(=O)C1(c2ccn(C(=O)NCCC3(c4ncc(-c5ccc(Cl)cc5)s4)CCC3)n2)CC1 | antigen / luminescence | 0.05 µM
COCCCOc1cc2c(cc1-c1ccn(C)n1)-c1c(cc(C(=O)O)c(=O)n1C1CC1)CS2(=O)=O | antigen / visual reading / absorbance | 0.1–0.5 µM
CS(=O)(=O)c1ccc(C(=O)NC23CC(c4nc5ccc(Cl)cc5o4)(C2)C3)o1 | antigen / luminescence | 5.971 µM
COCCC(C)Oc1cc2c(cc1Cl)-c1c(cc(C(=O)O)c(=O)n1C1CC1)CS2(=O)=O | antigen / visual reading / absorbance | >0.05 µM
CP(C)(=O)c1cccc(C(=O)NC2CC3(C2)CC(c2nc4cc(Cl)ccc4s2)C3)c1 | luminescence | 3.39 µM

The first 2 rows once more:

{"compound": "CS(=O)(=O)C1(c2ncc(C(=O)NCCC3(c4ncc(-c5ccc(Cl)cc5)s4)CCC3)o2)CC1", "method": "antigen / luminescence", "value": "0.07 µM"}
{"compound": "CNS(=O)(=O)c1ccc(C(=O)NC2CC3(C2)CC(c2nc4cc(Cl)ccc4o2)C3)o1", "method": "luminescence", "value": "1.036 µM"}